Results of unrelated studies side by side (data: NIAID ChemDB).

Shared fields: whole-cell or culture tests; species: HIV-1; read by: cytopathic effect / MTT; endpoint: EC50

ECn: concentration that inhibits the pathogen or its effect by n%.

structure | cell line | strain | result
CC(=O)O[C@H]1CC[C@@H](O)CC[C@@H](C)/C=C/[C@@]2(C)CC[C@@H](C(C)(C)OC(C)=O)[C@H]12 | MT-2 |  | 2.9 µM
CC(C)(C)NC(=O)[C@@H]1C[C@@H]2CCCC[C@@H]2CN1C[C@H](O)[C@H](Cc1ccccc1)NC(=O)c1cccc(Cl)c1Cl | MT-2 | RF | 1.45 µg/mL
CC1=C(N)C(C)(C)N(Cc2ccccc2)S1(=O)=O | MT-4 | IIIB | >125 µg/mL
Cc1c(F)cccc1C(=O)N[C@@H](Cc1ccccc1)[C@H](O)CN1C[C@H]2CCCC[C@H]2C[C@H]1C(=O)NC(C)(C)C | MT-2 | RF | 1.65 µg/mL
C[C@H]1/C=C/[C@@]2(C)CC[C@@H](C(C)(C)O)[C@@H]2[C@@H](O)C[C@](C)(O)/C=C/C1 | MT-2 |  | 6.16 µM
CC1(C)C(N)=CS(=O)(=O)N1Cc1ccc(Cl)cc1 | MT-4 | IIIB | >125 µg/mL
C=CCN1C(C)C(=O)Nc2ccc(Cl)cc2S1(=O)=O | MT-4 |  | 28 µM
Fc1cccc(F)c1CCNC(=S)Nc1ncc(Br)cc1Cl | MT-4 | IIIB | 2.26 µg/mL
O=S(=O)(O)O.OCC(O)C(O)C(OC1OC(CO)C(O)C(OC2OC(CO)C(O)C(OC3OC(CO)C(O)C(OC4OC(CO)C(O)C(O)C4O)C3O)C2O)C1O)C(O)CO | MT-4 | IIIB | >300 µg/mL
C[C@]12CCC3C(CC[C@H]4C[C@@H](CCC=C(c5cc(Cl)c(O)c(C(=O)O)c5)c5cc(Cl)c(O)c(C(=O)O)c5)CC[C@]34C)C1CC[C@@H]2CCC=C(c1cc(Cl)c(O)c(C(=O)O)c1)c1cc(Cl)c(O)c(C(=O)O)c1 | CEM + CEM-SS | RF | 1.3 µM
CSc1nc2ccccc2c(=O)n1/N=C1\C(=O)N(CN(C)C)c2ccccc21 | MT-4 | IIIB | >11 µM
CN1c2ccccc2C2C1C=C(C#N)C(=O)N2c1ccc(F)cc1 | MT-4 | LAI | >32 µM
Cc1cnccc1C(=O)N[C@H](CSc1ccccc1)[C@@H](O)CN1CCN(Cc2cccnc2)C[C@H]1C(=O)NC(C)(C)C | CEM | IIIB | 0.328 µg/mL
CC1(Cc2ccccc2)OS(=O)(=O)C=C1N | MT-4 | IIIB | >125 µg/mL
O=S(=O)(O)O.OCC1O[C@H](O)[C@@H](O)[C@H](O)C1O | MT-4 | IIIB | >300 µg/mL
C=C(C)CN1C(C)C(=O)Nc2ccc(Cl)cc2S1(=O)=O | MT-4 |  | 17 µM
CSc1nc2ccccc2c(=O)n1/N=C1\C(=O)N(CN2CCOCC2)c2ccc(Cl)cc21 | MT-4 | IIIB | >14 µM
CCN1CCn2c(=S)[nH]c3cc(Cl)cc(c32)S1(=O)=O | MT-4 |  | 127 µM
CC(C)(C)NC(=O)[C@@H]1C[C@@H]2CCCC[C@@H]2CN1C[C@H](O)[C@H](Cc1ccccc1)NC(=O)c1c(Cl)ccc(O)c1Cl | CEM | IIIB | 2.7 µg/mL
N#CC1=CC2C(c3ccccc3N2Cc2ccncc2)N(c2ccc([N+](=O)[O-])cc2)C1=O | MT-4 | LAI | <1 µM
CC(C)=CCN(C(C)C(=O)O)S(=O)(=O)c1cc(Cl)ccc1[N+](=O)[O-] | MT-4 |  | ≥200 µM
CN1c2ccccc2C2C1C=C(C#N)C(=O)N2c1ccc(C#N)cc1 | MT-4 | LAI | 1–32 µM
Fc1cccc(F)c1CCNC(=S)Nc1cccc(Br)n1 | MT-4 | IIIB | 0.016 µg/mL
Cc1nc(-c2ccc(N3C(=O)C(Br)=CC4C3c3ccccc3N4C)cc2)no1 | MT-4 | LAI | 1–32 µM
Fc1cccc(F)c1CCNC(=S)Nc1ncc(Br)cn1 | MT-4 | IIIB | 0.053 µg/mL
CSc1nc2ccccc2c(=O)n1/N=C1\C(=O)Nc2ccccc21 | MT-4 | IIIB | >57 µM
O=C1CNS(=O)(=O)c2cc(Cl)cc([N+](=O)[O-])c2N1 | MT-4 |  | >200 µM
Cc1ccnc(NC(=S)NCCc2c(F)cccc2F)c1 | MT-4 | IIIB | 0.026 µg/mL
CC1=C(N)C(C)(Cc2ccccc2)OS1(=O)=O | MT-4 | IIIB | >125 µg/mL
CC1C(=S)Nc2ccc(Cl)cc2S(=O)(=O)N1CC1CC1 | MT-4 |  | 10 µM
COc1c(Cl)cc(C(=CCCNC(=O)C[C@H]2CC[C@]3(C)C4CC[C@@]5(C)C(CC[C@@H]5CC(=O)NCCC=C(c5cc(Cl)c(OC)c(C(=O)O)c5)c5cc(Cl)c(OC)c(C(=O)O)c5)C4CC[C@H]3C2)c2cc(Cl)c(OC)c(C(=O)O)c2)cc1C(=O)O | CEM + CEM-SS | RF | 38 µM
Cc1ccc(NC(=S)NCCc2c(F)cccc2F)nc1 | MT-4 | IIIB | 0.0011 µg/mL
CSc1nc2ccccc2c(=O)n1/N=C1\C(=O)N(CN2CCCCC2)c2ccccc21 | MT-4 | IIIB | >9 µM

Repeating the first 2 entries:

structure	cell line	strain	result
CC(=O)O[C@H]1CC[C@@H](O)CC[C@@H](C)/C=C/[C@@]2(C)CC[C@@H](C(C)(C)OC(C)=O)[C@H]12	MT-2		2.9 µM
CC(C)(C)NC(=O)[C@@H]1C[C@@H]2CCCC[C@@H]2CN1C[C@H](O)[C@H](Cc1ccccc1)NC(=O)c1cccc(Cl)c1Cl	MT-2	RF	1.45 µg/mL

Conditions beyond the fields shown may differ between rows. Blank or dashed fields: not listed here. Two numbers with a dash give a range or band.